# Library screen at single concentrations

From ChEMBL document CHEMBL3988442, “University of Dundee, Small-Polar-MMV Screening Library” (2021).

A: 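Growth of Mycobacterium tuberculosis over 3 days (7H9 medium with glucose and tyloxapol); the read-out is not stated. Concentration: 500 µM. Direction is inferred from retests: higher values go with more growth inhibition. About 18,000 compounds were tested under these conditions; 7.9% (about 1,400) showed 50% or more at least once.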
B: 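Phenotypic screen: M. tuberculosis growth, cholesterol and DPPC medium, 4 days; the read-out is not stated. Tested at 500 µM. The record gives no direction; compounds that gave an IC50 in retests scored well above the rest, so higher reads as more growth inhibition. Size under these conditions: about 18,000 compounds, about 900 of them at 50% or above in at least one test.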

The filed quantity is “Percent Effect” (%).
The record does not define 0% and 100%; most values in the screen are far below 50% and negative numbers occur (in some assays of this library far below -100).
Many other results are left out here, so strong results are more common than in the screen.
A dash means the value is not listed here; it may have been measured.

SMILES	A	B
C=C(C)CN1C(=O)Nc2ccccc2S1(=O)=O	66.8%	69.59%
CSc1ncc(CNCC2(O)CCCNC2)n1C (stereo not drawn)	7.194%	-
CCN(CC)C(=O)CNc1ccc(Cl)c(C#N)n1	0.7009%	-11.23%
CC(C)n1cncc1CO	9.153%	-
COC(=O)c1c(C)[nH]c(C(=O)NC2CC2)c1C	-	-15.49%
COc1ccc(-c2cc(NCCO)nc(N)n2)cc1C	59.9%	51.06%
CC1(c2ccc(F)cc2)CNC(=O)O1 (stereo not drawn)	-	11.62%
CN(CC(N)=O)Cc1cccc(OCC(F)(F)F)c1	-	39%
CC(O)CN1CCN(C(=O)C2CCCC2)CC1 (stereo not drawn)	-6.689%	-
COCCOc1ccc(C(=O)N2CCOCC2)cc1Br	20.71%	-
CCOCCC(=O)N1CCN(C(C)c2ccsc2)CC1 (stereo not drawn)	38.12%	-
Cc1cncc(C(=O)OC(C)CCN2CCCC2=O)c1 (stereo not drawn)	-	-1.608%
COc1ccc(CNCCCN2CCCC2=O)cc1	0.04715%	-
Cn1cc(Br)c(CN)n1	1.427%	-
Cc1cnn(CCNCc2nccn2C)c1	64.85%	70.25%
CCN1CCC(CCN)CC1	6.845%	-
CC(NS(=O)(=O)c1ccccc1)c1ccccn1 (stereo not drawn)	28.49%	-9.69%
Nc1ncc(C(F)F)cc1Br	1.528%	-
CCNC(=O)C1CCCN1C(=O)Nc1ccccc1 (stereo not drawn)	-	-5.795%
CNC(=O)c1ccc(S(=O)(=O)NCCCOC)cc1	-	4.904%
CN(C)C(=O)COC(=O)c1ccc2ncsc2c1	49.82%	-
CC(C)(C)NC(=O)c1ccc(C(=O)NCC2CC2)cc1	-1.858%	-
CC(C)C(=O)N1CCCCC1C (stereo not drawn)	7.549%	-
O=C(N[C@H](CO)c1ccccc1)c1cccnc1	-	-7.246%
CCCc1nc(CN2CCN(C(C)=O)CC2)cs1	-	14.41%
NCc1cccc(-c2ccncc2)c1	33.68%	17.53%
Cc1ncsc1C(=O)NCc1ccnc(N(C)C)c1	16.03%	9.778%
CCN(CC)CCCC1CCN(S(N)(=O)=O)CC1	4.563%	-
COC(=O)c1cnc(CO)cn1	-	-10.32%
CNC(=O)c1ccc(CN(C)CC2(C)COC2)cc1	15.51%	-
COCCC(=O)NC(C)Cc1ccc(O)cc1 (stereo not drawn)	-	7.224%
NC1CCN(C(=O)c2ccccn2)C1 (stereo not drawn)	-6.902%	-
NC(=O)c1cc(N)nc2ccccc12	-11.86%	-
CC(CNC(=O)c1cc(Br)c[nH]1)N(C)C (stereo not drawn)	4.031%	-
C1CCN(CCOC2CCNC2)C1 (stereo not drawn)	-	-16.66%
CN(CC(=O)Nc1cnc2ccccc2c1)S(C)(=O)=O	0.953%	-
CCn1ccnc1CN(C)CC(=O)N(C)C	5.04%	-
CS(=O)(=O)n1cc(N)cn1	-	7.692%
CC(C)NC(=O)CNC(=O)CSc1cccs1	-11.27%	-34.57%
COC(=O)N1CC(NC(=O)c2cc(C(C)=O)c[nH]2)C1	12.72%	72.84%
CCC(=O)Nc1ccc(C)c(-n2cnnn2)c1	7.166%	-
O=C(CN(C1CCCC1)C1CC1)N1CCNC1=O	-	1.097%
CC(CN1CCOCC1)NC(=O)NC1CC1 (stereo not drawn)	-	-4.176%
Cc1ccc(NC(=O)N[C@@H]2CNCC[C@H]2O)cc1	17.84%	-
Cc1ccc(CCC(=O)N(C)C)cc1	-	-1.565%
CCC(C)(C)NC(=O)Cn1ccc(C(F)(F)F)n1	22.76%	-
CCc1noc(CN2CCC(CC(N)=O)CC2)n1	-	-5.338%
CN(C(=O)[C@@H](N)Cc1ccccc1)C1CCCC1	36.03%	-
NCCNC(=O)c1nc(Cn2cc(Br)cn2)no1	23.41%	-
CC(O)(CCN)c1ccccc1 (stereo not drawn)	-	6.479%
NCC1CCCCN(Cc2ccccc2)C1 (stereo not drawn)	-	-2.776%
COCCN(C(=O)c1cccc(C)c1C)C(C)C(N)=O (stereo not drawn)	1.285%	-
COc1ncccc1-c1ccc(S(N)(=O)=O)s1	-	14.15%
COCCNC(=O)c1ccc(N2CCCC(O)C2)nc1 (stereo not drawn)	-	-1.043%
CN(CCCN)c1ccccc1F	91.06%	86.55%
CNC(=O)C(NC(=O)c1cnccn1)c1ccccc1 (stereo not drawn)	-	-11.02%
COc1cccc(CN(C)C(=O)c2cscn2)n1	24.58%	-
CC(=O)N1CCN(CCC(=O)Nc2cc(C)on2)CC1	-9.151%	-
NC(=O)N1CCCC(Nc2nc(C3CC3)ns2)C1 (stereo not drawn)	11.09%	-
O=C(COC(=O)c1ccc2ccccc2n1)NC1CC1	0.301%	-
COc1ccccc1OCCN(C)CC(N)=O	16.94%	-
Cc1ccccc1C1(O)CCNCC1	-5.376%	-
CCC(N)c1cnn(CC)c1 (stereo not drawn)	-	65.72%
CN(Cc1cc(=O)n2ccsc2n1)C1CCSCC1	16.18%	-
Cn1nc2n(c1=O)C(=O)N(c1ccccc1)C2	-	-5.387%

The last 7 entries again:

SMILES,A,B
NC(=O)N1CCCC(Nc2nc(C3CC3)ns2)C1 (stereo not drawn),11.09%,-
O=C(COC(=O)c1ccc2ccccc2n1)NC1CC1,0.301%,-
COc1ccccc1OCCN(C)CC(N)=O,16.94%,-
Cc1ccccc1C1(O)CCNCC1,-5.376%,-
CCC(N)c1cnn(CC)c1 (stereo not drawn),-,65.72%
CN(Cc1cc(=O)n2ccsc2n1)C1CCSCC1,16.18%,-
Cn1nc2n(c1=O)C(=O)N(c1ccccc1)C2,-,-5.387%